Pooled drug test results. Numbers come from NIAID ChemDB, via PubChem.

Shared fields: growth or infection tests; agent: Aspergillus fumigatus

Blank or dashed fields: not listed here. Neighbouring rows are from separate reports. ECn: concentration that inhibits the pathogen or its effect by n%. MIC50, MIC90 and the like: level of inhibition, or share of isolates inhibited.

compound	read by	measure	strain or isolate	value
Cc1onc(-c2ccc(Cl)cc2)c1C=O	-	EC50	Clinical isolates	>50 µg/mL
C[C@@H](N1CCN(Cc2cn(Cc3ccc(Cl)cc3Cl)c3c(Cl)cccc23)CC1)[C@](O)(Cn1cncn1)c1ccc(F)cc1F	resazurin	MIC80	ATCC 16424	8 µg/mL
COc1cc(NS(=O)(=O)c2ccc(N)cc2)nc(OC)n1	-	MIC	IFM 41362	128 µg/mL
Cc1nc(OCc2nc(-c3ccc(F)cc3)n[nH]2)c2ccccc2n1	-	MIC100	MTCC 343	50 µg/mL
CCCCN(Cc1cn(Cc2cccc([N+](=O)[O-])c2)nn1)CC(O)(Cn1cncn1)c1ccc(F)cc1F	-	MIC80	-	>64 µg/mL
COc1ccc(NS(=O)(=O)c2ccc(N)cc2)nn1	-	MIC	IFM 41362	≥256 µg/mL
CCCCN(Cc1cn(Cc2ccccc2[N+](=O)[O-])nn1)CC(O)(Cn1cncn1)c1ccc(F)cc1F	-	MIC80	-	>64 µg/mL
CC(O)Cc1ccc(Cn2cc(CN3CCN([C@H](C)[C@](O)(Cn4cncn4)c4ccc(F)cc4F)CC3)c3ccccc32)cc1	resazurin	MIC80	ATCC 16424	>128 µg/mL
CCC(C)CC(C)CCCCCCCCC(=O)N[C@H]1C[C@@H](O)[C@H](NCCN)NC(=O)[C@@H]2[C@@H](O)CCN2C(=O)[C@H]([C@H](O)CCN)NC(=O)[C@H]([C@H](O)[C@@H](O)c2ccc(O)cc2)NC(=O)[C@@H]2C[C@@H](O)CN2C(=O)[C@H]([C@@H](C)O)NC1=O	broth dilution	MIC	ATCC 204305	128 µg/mL
Cc1ccc(-c2n[nH]c(COc3nc(C(F)(F)F)nc4ccccc34)n2)cc1	-	MIC100	MTCC 343	50 µg/mL
Oc1ccc(C(=S)Nc2ccc(Cl)c(Cl)c2)c(O)c1	-	MIC	-	31.25 µg/mL
C[C@@H](N1CCN(Cc2cn(Cc3ccc(F)cc3F)c3ccccc23)CC1)[C@](O)(Cn1cncn1)c1ccc(F)cc1F	resazurin	MIC80	ATCC 16424	4 µg/mL
O=Cc1cc(-c2ccccc2Cl)on1	-	MIC	Clinical isolates	>50 µg/mL
Cc1ccc(NC(=S)c2ccc(O)cc2O)c(Cl)c1	-	MIC	-	15.63 µg/mL
CCCCN(Cc1cn(Cc2c(Cl)cccc2Cl)nn1)CC(O)(Cn1cncn1)c1ccc(F)cc1F	-	MIC80	-	>64 µg/mL
NC(=O)c1ccc(NC(=S)c2ccc(O)cc2O)cc1	-	MIC	-	>250 µg/mL
Cc1onc(-c2cccc(Br)c2)c1C=O	-	EC50	Clinical isolates	8.86 µg/mL
O=C1C[C@@H](c2ccc(Cl)cc2)Cc2cc(O)cc(O)c21	-	MIC	Clinical isolate H237	145 µg/mL
Oc1cccc(NC(=S)c2ccc(O)cc2O)c1	-	MIC	-	125 µg/mL
C[C@@H](N1CCN(Cc2cn(Cc3ccc(C(F)(F)F)cc3)c3cc(Cl)ccc23)CC1)[C@](O)(Cn1cncn1)c1ccc(F)cc1F	resazurin	MIC80	ATCC 16424	4 µg/mL
O=C1C[C@@H](c2ccc(F)c(Cl)c2)Cc2cc(O)cc(O)c21	-	MIC	Clinical isolate H237	617 µg/mL
Nc1ccc(S(=O)(=O)Nc2ccnn2-c2ccccc2)cc1	-	MIC	IFM 47450	64 µg/mL
Oc1ccc(C(=S)Nc2cccc(C(F)(F)F)c2)c(O)c1	-	MIC	-	62.5 µg/mL
COc1ccc(-c2n[nH]c(COc3nc(C)nc4ccccc34)n2)cc1OC	-	MIC100	MTCC 343	25 µg/mL
CC(=O)c1ccc(NC(=S)c2ccc(O)cc2O)cc1	-	MIC	-	>500 µg/mL
CCC(C)n1ncn(-c2ccc(N3CCN(c4ccc(OC[C@H]5CO[C@](Cn6cncn6)(c6ccc(Cl)cc6Cl)O5)cc4)CC3)cc2)c1=O	-	Geometric mean MIC	50 isolates	0.77 µg/mL
CCC(C)c1ccc(Cn2cc(CN3CCN([C@H](C)[C@](O)(Cn4cncn4)c4ccc(F)cc4F)CC3)c3ccccc32)cc1	resazurin	MIC80	ATCC 16424	32 µg/mL
Cc1nc(OCc2nc(-c3ccccc3)n[nH]2)c2ccccc2n1	-	MIC100	MTCC 343	50 µg/mL
C[C@@H](N1CCN(Cc2cn(Cc3ccc(F)cc3F)c3c(C#N)cccc23)CC1)[C@](O)(Cn1cncn1)c1ccc(F)cc1F	resazurin	MIC80	ATCC 16424	32 µg/mL
C[C@H]1[C@H](O)[C@@H](C)/C=C/C=C/C=C/C=C/C=C/C=C/C=C/[C@H](O[C@@H]2O[C@H](C)[C@@H](O)[C@H](N)[C@@H]2O)C[C@@H]2O[C@](O)(C[C@@H](O)C[C@@H](O)CC[C@H](O)[C@@H](O)C[C@@H](O)CC(=O)O[C@H]1C)C[C@H](O)[C@H]2C(=O)O	absorbance	MIC	Clinical isolate	0.5 µg/mL
O=C1C[C@@H](c2cccc(O)c2)Cc2cc(O)cc(O)c21	-	MIC	Clinical isolate H237	>546 µg/mL
ClCCl	-	MIC80	-	16 µg/mL
Cc1ccc(C(C)C)cc1O	-	MLC	F05	0.32 µg/mL
C[C@@H](N1CCN(Cc2cn(Cc3cccc(C(F)(F)F)c3)c3c(F)cccc23)CC1)[C@](O)(Cn1cncn1)c1ccc(F)cc1F	resazurin	MIC80	ATCC 16424	8 µg/mL
CCCCN(Cc1cn(Cc2ccc(C)cc2)nn1)CC(O)(Cn1cncn1)c1ccc(F)cc1F	-	MIC80	-	>64 µg/mL
COc1ccc2oc3ccccc3c(=O)c2c1O	-	MIC80	-	>250 µg/mL
CCCCN(Cc1cn(Cc2ccccc2C#N)nn1)CC(O)(Cn1cncn1)c1ccc(F)cc1F	-	MIC80	-	>64 µg/mL
Cc1onc(-c2cccc(Cl)c2)c1C=O	-	MIC	Clinical isolates	12.5 µg/mL
COc1ccc(-c2n[nH]c(COc3ncnc4ccccc34)n2)cc1	-	MIC100	MTCC 343	25 µg/mL
CC1(C)C=Cc2ccc3c(=O)c4ccccc4oc3c2O1	-	MIC80	-	>250 µg/mL
Cc1cc(NS(=O)(=O)c2ccc(N)cc2)nc(C)n1	-	MIC	IFM 53412	≥256 µg/mL
Oc1ccc(C(=S)Nc2cc(Cl)ccc2Cl)c(O)c1	-	MIC	-	31.25 µg/mL
C=CCc1ccc(Cn2cc(CN3CCN([C@H](C)[C@](O)(Cn4cncn4)c4ccc(F)cc4F)CC3)c3ccccc32)cc1	resazurin	MIC80	ATCC 16424	32 µg/mL
O=Cc1cc(-c2cccc(Br)c2)no1	-	EC50	Clinical isolates	>50 µg/mL
CC1(C)Oc2c(ccc3c(=O)c4c(O)cccc4oc23)C[C@@]1(C)O	-	MIC80	-	>250 µg/mL
CCCCN(Cc1cn(Cc2ccc([N+](=O)[O-])cc2)nn1)CC(O)(Cn1cncn1)c1ccc(F)cc1F	-	MIC80	-	>64 µg/mL

The last 6 rows once more:

compound	read by	measure	strain or isolate	value
Cc1cc(NS(=O)(=O)c2ccc(N)cc2)nc(C)n1	-	MIC	IFM 53412	≥256 µg/mL
Oc1ccc(C(=S)Nc2cc(Cl)ccc2Cl)c(O)c1	-	MIC	-	31.25 µg/mL
C=CCc1ccc(Cn2cc(CN3CCN([C@H](C)[C@](O)(Cn4cncn4)c4ccc(F)cc4F)CC3)c3ccccc32)cc1	resazurin	MIC80	ATCC 16424	32 µg/mL
O=Cc1cc(-c2cccc(Br)c2)no1	-	EC50	Clinical isolates	>50 µg/mL
CC1(C)Oc2c(ccc3c(=O)c4c(O)cccc4oc23)C[C@@]1(C)O	-	MIC80	-	>250 µg/mL
CCCCN(Cc1cn(Cc2ccc([N+](=O)[O-])cc2)nn1)CC(O)(Cn1cncn1)c1ccc(F)cc1F	-	MIC80	-	>64 µg/mL